{
  "source": "paper PMC13198257",
  "about": "“An aerosolized dual-action autotaxin inhibitor-PPARγ agonist for the treatment of pulmonary fibrosis” (Cell Reports Medicine, 2026)",
  "test_system": "lung gene expression",
  "assay": "RNA sequencing of lung tissue (BLM/EL244 vs BLM)",
  "type": "in vivo, mouse",
  "protocol": "RNA quality was assessed using an Agilent TapeStation 4150 with the High Sensitivity […] ScreenTape (Agilent), according to the manufacturer’s protocols. For library preparation, the QuantSeq 3’mRNA-Seq Library Prep Kit (Lexogen) was used according to manufacturer’s instructions. Briefly, 500 ng of RNA from each sample was used for first-strand synthesis, followed by RNA template removal, and second-strand synthesis initiated by random primers. In-line barcodes were introduced at this step, and this was followed by magnetic bead-based purification. The resulting libraries were amplified for 15 cycles and re-purified, with quantity and quality assessed on a Qubit 4 Fluorometer with the Invitrogen Qubit dsDNA HS Assay and an Agilent Tapestation 4150 with the High Sensitivity D1000 assay kit, respectively. The quantified libraries were pooled equimolarly; 50ng of total library mix was used for Adapter Conversion PCR Amplification using the Universal Library Conversion Kit (App-A), Version: V1.0 (MGI Tech Co., Ltd.), according to the manufacturer’s instructions.\nThe quantity and quality of the purified adapter conversion PCR (AC-PCR) product were evaluated on a Qubit 4 Fluorometer with the Invitrogen Qubit dsDNA HS Assay and on an Agilent Tapestation 4150 with the High Sensitivity D1000 assay kit, respectively. This was followed by DNA denaturation, Single-Strand Circularisation, Enzymatic Digestion, Enzymatic Digestion Product Cleanup and Quality Control steps on 1 pmol of AC-PCR product, according to the Universal Library Conversion Kit (App-A) User Manual (Version: A3). […]\nAlignment of the FASTQ files was performed against the mouse genome build mm10 using a custom Bash script.[143] Read counting on the 3′ UTRs and differential expression analysis were conducted using the metaseqR2 bioconductor package.[144] […]",
  "data": [
    {"compound": "O=C1NC(=O)C(Cc2ccc(OCCC3CCN(C(=O)OCc4cc(Cl)cc(Cl)c4)CC3)cc2)S1", "note": "(stereo not drawn) [EL244, 3,5-dichlorobenzyl 4-(2-(4-((2,4-dioxothiazolidin-5-yl)methyl)phenoxy)ethyl)piperidine-1-carboxylate]", "values": [
      {"measurement": "BLM-induced DEGs suppressed by treatment (Q3)", "value": 363, "unit": "DEGs"},
      {"measurement": "EL244-deregulated DEGs that are a subset of BLM-induced DEGs", "value": 646, "unit": "DEGs"},
      {"measurement": "Number of deregulated genes versus BLM-treated mice", "setting": "inhaled EL244", "value": 741, "unit": "genes"}
    ]}
  ]
}
